Measured values from several laboratories, pooled; numbers as filed in NIAID ChemDB.

All rows: tests in culture; organism: Mycobacterium avium complex

Blank or dashed fields: not listed here. Rows are shuffled and stem from different studies. A number after MIC or MFC names an inhibition level or a share of isolates.

{"structure": "CO[C@H]1/C=C/O[C@@]2(C)Oc3c(C)c(O)c4c(O)c(c(/C=N/N5CCN(C/C=C/c6ccccc6)CC5)c(O)c4c3C2=O)NC(=O)/C(C)=C\\C=C\\[C@H](C)[C@H](O)[C@@H](C)[C@@H](O)[C@@H](C)[C@H](OC(C)=O)[C@@H]1C", "strain or isolate": "SK-32", "measure": "MBC", "value": "4 µg/mL"}
{"structure": "NCCC[C@H](N)CC(=O)N[C@H]1CNC(=O)[C@H]([C@H]2C[C@H](O)NC(N)=N2)NC(=O)/C(=C/NC(N)=O)NC(=O)[C@H](CO)NC(=O)[C@H](CO)NC1=O", "strain or isolate": "TMC 1469", "measure": "MIC", "value": "6.25 µg/mL"}
{"structure": "C=CCSc1nc2ccccc2[nH]1", "strain or isolate": "MY330/88", "measure": "MIC", "value": "1000 µM"}
{"structure": "NCCC(O)C(N)CC(=O)NC1CNC(=O)C(C2CCN=C(N)N2)NC(=O)/C(=C/NC(N)=O)NC(=O)C(CO)NC(=O)C(CO)NC1=O", "strain or isolate": "Isolate 64", "measure": "MIC", "value": "50 µg/mL"}
{"structure": "CC1CN(c2cc3c(cc2F)c(=O)c(C(=O)O)cn3-c2ccc(F)cc2F)CCN1", "strain or isolate": "3212", "measure": "MIC", "value": "8 µg/mL"}
{"structure": "NCCC(O)C(N)CC(=O)NC1CNC(=O)C(C2CCN=C(N)N2)NC(=O)/C(=C/NC(N)=O)NC(=O)C(CO)NC(=O)C(CO)NC1=O", "strain or isolate": "13011 (serotype 16)", "measure": "MIC", "value": "12.5 µg/mL"}
{"structure": "NC[C@@H]1O[C@H](O[C@H]2[C@@H](O)[C@H](O[C@@H]3[C@@H](O)[C@H](N)C[C@H](N)[C@H]3O[C@H]3O[C@H](CO)[C@@H](O)[C@H](O)[C@H]3N)O[C@@H]2CO)[C@H](N)[C@@H](O)[C@@H]1O", "strain or isolate": "TMC 1403", "measure": "MIC", "value": "0.78 µg/mL"}
{"structure": "CCCSc1nc2ccccc2[nH]1", "strain or isolate": "MY330/88", "measure": "MIC", "value": "250 µM"}
{"structure": "CC[C@@H](CO)NCCN[C@@H](CC)CO", "strain or isolate": "13011 (serotype 16)", "measure": "MIC", "value": "3.2 µg/mL"}
{"structure": "CCC1CN(c2c(F)cc3c(=O)c(C(=O)O)cn(C4CC4)c3c2OC)CCN1", "strain or isolate": "14 strains", "measure": "MIC50", "value": "1 µg/mL"}
{"structure": "CC1COc2c(N3CCN(C)CC3)c(F)cc3c(=O)c(C(=O)O)cn1c23", "strain or isolate": "CIPT 14031001", "measure": "MIC", "value": "5 µg/mL"}
{"structure": "O=[N+]([O-])c1ccccc1CSc1nc2ccccc2[nH]1", "strain or isolate": "MY330/88", "measure": "MIC", "value": "250 µM"}
{"structure": "CO[C@H]1/C=C/O[C@@]2(C)Oc3c(C)c(O)c4c(O)c(c(/C=N/N5CCN(C)CC5)c(O)c4c3C2=O)NC(=O)/C(C)=C\\C=C\\[C@H](C)[C@H](O)[C@@H](C)[C@@H](O)[C@@H](C)[C@H](OC(C)=O)[C@@H]1C", "strain or isolate": "1423/HIV+", "measure": "MIC", "value": "8 µg/mL"}
{"structure": "CO[C@H]1/C=C/O[C@@]2(C)Oc3c(C)c(O)c4c(O)c(c5c(c4c3C2=O)NC2(CCN(CC(C)C)CC2)N=5)=NC(=O)/C(C)=C\\C=C\\[C@H](C)[C@H](O)[C@@H](C)[C@@H](O)[C@@H](C)[C@H](OC(C)=O)[C@@H]1C", "strain or isolate": "1854", "measure": "MBC", "value": "32 µg/mL"}
{"structure": "CC[C@@H](CO)NCCN[C@@H](CC)CO", "strain or isolate": "9838", "measure": "MIC", "value": "7.5 µg/mL"}
{"structure": "CC[C@H]1OC(=O)[C@H](C)[C@@H](O[C@H]2C[C@@](C)(OC)[C@@H](O)[C@H](C)O2)[C@H](C)[C@@H](O[C@@H]2O[C@H](C)C[C@H](N(C)C)[C@H]2O)[C@](C)(O)C[C@@H](C)C(=O)[C@H](C)[C@@H](O)[C@]1(C)O", "strain or isolate": "3218", "measure": "MIC", "value": "32 µg/mL"}
{"structure": "CC(C)N=c1cc2n(-c3ccc(Cl)cc3)c3ccccc3nc-2cc1Nc1ccc(Cl)cc1", "strain or isolate": "733/HIV+", "measure": "MIC", "value": "0.12 µg/mL"}
{"structure": "CCn1cc(C(=O)O)c(=O)c2cc(F)c(N3CCNCC3)nc21", "strain or isolate": "CIPT 140310023", "measure": "MIC", "value": "40 µg/mL"}
{"structure": "CCC1CN(c2c(F)cc3c(=O)c(C(=O)O)cn(C4CC4)c3c2Cl)CCN1", "strain or isolate": "14 strains", "measure": "MIC50", "value": "2 µg/mL"}
{"structure": "CC(C)CSc1nc2ccccc2[nH]1", "strain or isolate": "MY330/88", "measure": "MIC", "value": ">125 µM"}
{"structure": "NC[C@H]1O[C@H](O[C@H]2[C@H](O)[C@@H](O[C@H]3O[C@H](CO)[C@@H](O)[C@H](N)[C@H]3O)[C@H](N)C[C@@H]2N)[C@H](O)[C@@H](O)[C@@H]1O", "strain or isolate": "N-314 (HIV-)", "measure": "MIC", "value": "4 µg/mL"}
{"structure": "O=C(O)c1cn(-c2ccc(F)cc2F)c2c(F)c(N3CCNCC3)c(F)cc2c1=O", "strain or isolate": "14 strains", "measure": "MIC50", "value": "16 µg/mL"}
{"structure": "CC[C@H]1OC(=O)[C@H](C)[C@@H](O[C@H]2C[C@@](C)(OC)[C@@H](O)[C@H](C)O2)[C@H](C)[C@@H](O[C@@H]2O[C@H](C)C[C@H](N(C)C)[C@H]2O)[C@](C)(OC)C[C@@H](C)C(=O)[C@H](C)[C@@H](O)[C@]1(C)O", "strain or isolate": "3211", "measure": "MIC", "value": "4 µg/mL"}
{"structure": "NC1CC2CCC(C1)N2c1nc2c(cc1F)c(=O)c(C(=O)O)cn2C1CC1", "strain or isolate": "14 strains", "measure": "MIC50", "value": "4 µg/mL"}
{"structure": "C[C@@H]1CN(c2c(F)c(N)c3c(=O)c(C(=O)O)cn(C4CC4)c3c2F)C[C@H](C)N1", "strain or isolate": "6", "measure": "MIC", "method": "broth dilution", "value": "2 µg/mL"}
{"structure": "NC[C@@H]1O[C@H](O[C@H]2[C@@H](O)[C@H](O[C@@H]3[C@@H](O)[C@H](N)C[C@H](N)[C@H]3O[C@H]3O[C@H](CO)[C@@H](O)C[C@H]3N)O[C@@H]2CO)[C@H](N)[C@@H](O)[C@@H]1O[C@H]1O[C@H](CO)[C@@H](O)[C@H](O)[C@@H]1O", "strain or isolate": "TMC 1467", "measure": "MIC", "value": "0.01 µg/mL"}
{"structure": "C[C@@H]1CN(c2nc3c(cc2F)c(=O)c(C(=O)O)cn3C(C)(C)C)C[C@H](C)N1", "strain or isolate": "14 strains", "measure": "MIC90", "value": "2 µg/mL"}
{"structure": "CN[C@@H]1[C@H](O[C@H]2[C@H](O[C@H]3[C@H](O)[C@@H](O)[C@H](N=C(N)N)[C@@H](O)[C@@H]3N=C(N)N)O[C@@H](C)[C@]2(O)C=O)O[C@@H](CO)[C@H](O)[C@H]1O", "strain or isolate": "Isolate 135", "measure": "MIC", "value": "25 µg/mL"}
{"structure": "S=c1[nH]c2ccccc2[nH]1", "strain or isolate": "MY330/88", "measure": "MIC", "value": "500 µM"}
{"structure": "CC(C)N1CCN(c2cc3c(cc2F)c(=O)c(C(=O)O)cn3C2CC2)CC1", "strain or isolate": "14 strains", "measure": "MIC50", "value": "2 µg/mL"}
{"structure": "NC[C@H]1O[C@H](O[C@H]2[C@H](O)[C@@H](O[C@H]3O[C@H](CO)[C@@H](O)[C@H](N)[C@H]3O)[C@H](N)C[C@@H]2N)[C@H](O)[C@@H](O)[C@@H]1O", "strain or isolate": "Isolate C-43", "measure": "MIC", "value": "50 µg/mL"}
{"structure": "O=[N+]([O-])c1cccc(CSc2nc3ccccc3[nH]2)c1", "strain or isolate": "MY330/88", "measure": "MIC", "value": ">62 µM"}
{"structure": "CCNCC1CCN(c2c(F)cc3c(=O)c(C(=O)O)cn(C4(C)CC4)c3c2F)C1", "strain or isolate": "14 strains", "measure": "MIC50", "value": "8 µg/mL"}

A second listing of 4 rows from above:

| structure | strain or isolate | measure | method | value |
|---|---|---|---|---|
| O=C(O)c1cn(-c2ccc(F)cc2F)c2c(F)c(N3CCNCC3)c(F)cc2c1=O | 14 strains | MIC50 | - | 16 µg/mL |
| NCCC(O)C(N)CC(=O)NC1CNC(=O)C(C2CCN=C(N)N2)NC(=O)/C(=C/NC(N)=O)NC(=O)C(CO)NC(=O)C(CO)NC1=O | 13011 (serotype 16) | MIC | - | 12.5 µg/mL |
| CCn1cc(C(=O)O)c(=O)c2cc(F)c(N3CCNCC3)nc21 | CIPT 140310023 | MIC | - | 40 µg/mL |
| CCCSc1nc2ccccc2[nH]1 | MY330/88 | MIC | - | 250 µM |